# Measurements: US20260069689A1, “ANTI-SARS-COV-2-SPIKE GLYCOPROTEIN ANTIBODIES AND ANTIGEN-BINDING FRAGMENTS” (Regeneron, published 2026)
# Changes are numbered by the printed parent chain.
# B1: mAb14256 (antibody, V domains shown)
# VH: QVQLQESGPGLVKPSETLSLTCTVSGGSISSHYWSWIRQPPGKGLEWIGYIYYSGSSNYNPSLKSRVTISVDTSKNQFSLKLNSVTAADTAVYYCARHYDILTGFDWFDPWGQGTLVTVSS
# VL: QSVLTQPPSVSGAPGQRVTISCTGSSSNIGTHYDVHWYQQLPGTAPKLLIYGNSNRPSGVPDRFSGSKSGTSASLAITGLQAEDEADYYCQSFDNSLTAPYVFGTGTKVTVLG
# B2: mAb14285 (antibody, V domains shown)
# VH: QVQLVQSGAEVKKPGASVKVSCKASGYTFTGYFIHWVRQAPGQGLEWMGWISPISGGTNYAQKFQGRVTVTRDTSITTAYMELSRLTSDDTAVYHCAREGGTWKGDFDYWGQGTLVTVSS
# VL: QSALTQPASVSGSPGQSITISCTGTSSDVESYNLVSWYQQHPGKAPKLMIYEGSKRPSGVSNRFSGSKSGNTASLTISGLQAEDEADYYCSSYAGSSTWVFGGGTKLTVLG
# B3: mAb14280 (antibody, V domains shown)
# VH: QVQLVQSGAEVKKPGASVRVSCKASGYTFTGNYIHWVRQAPGQGLEWMAWINPNSGGKNYAQKFQGRVTLTRDTSVNTAYMELSRLRSDDTAMYYCARDVNYNILTGPGGLWGQGTLVTVSS
# VL: QSALTQPPSASGSPGQSVTISCTGTSSDVGGYNFVSWYQQHPGKAPKLMIYEVSKRPSGVPDRFSGSKSGNTASLTVSGLQAEDEADYYCSSYAGSNNFVFGTGTKVTVLG
# B4: mAb14234 (antibody, V domains shown)
# VH: QVQLVESGGGVVQPGRSLRLSCAASGFTFSSYGIHWVRQAPGKGLEWVAIIWYDGSEKYYADSVKGRFTISRDNSKNTLFLQMNSLEAEDTAVYYCARGPDLLTGYYNYFYYGMDVWGQGTTVTVSS
# VL: QSVLTQPPSVSGAPGQRVTISCTGSSSNIGIGYDVHWYQQLPGTVPKLLIYGNTNRPSGVPDRFSGSKSGTSASLAITGLQAEDEADYYCQSYDSSLSSYVFGTGTKVTVLG
# B5: mAb14232 (antibody, V domains shown)
# VH: QITLKESGPTLVKPTQTLTLTCTFSGFSLSASGVGVGWIRQPPGKALEWLALIYWDDDKRYSPSLKSRLTITKDTSKNQVVLTMTNMDPVDTATYYCAQHKVATIFDYWGQGTLVTVSS
# VL: QSALTQPPSASGSPGQSVTISCTATSSDVGNYNYVSWYQQHPGKAPKLMIYEVTKRPSGVPDRFSGSKSGNTASLTVSGLQAEDEADYYCSSYAGSWGVFGGGTKLTVLG
# B6: mAb14292 (antibody, V domains shown)
# VH: EVQLVESGGGLVQPGGSLRLSCVASGFAFSTYEMNWVRQAPGKGLEWVSYISSSGSTIYYADSVKGRLTISRDNVKNSLYLQMNSLRVEDTAIYYCARDAIRNNDILTDPATFDPWGQGTLVTVSS
# VL: not shown
# B7: mAb15156 (antibody, V domains shown)
# VH: QLQLQESGPGLVKSSETLSLTCTVSASITGSTYYWGWIRQPPGKGLEWIGSIYYSGTTYYKASLKSRVTISVDTSKNQFSLKLTSVTVADTAVYYCVSHLLGNYHKYGMDVWGQGTTVTVSS
# VL: QSVLTQPPSASGTPGQRVTISCSGSRSNIGINTVNWYQQFPGTALNLLIFSDNQRPSGVPDRFSGSKSGTSASLAISGLQSEDEADYYCAAWDDSLNGPDWVFGGGTKLTVLG
# B8: mAb15157 (antibody, V domains shown)
# VH: EVQLVESGGALVQPGGSLRLSCAASGFPFTIYAMTWVRQAPGKGLEWVSVITGSGDSTYYADSVKGRFTISRDNSKNTLYLQMNSLRAEDTAVYYCVKTGEGFFYYYYGMDVWGQGTTVTVSS
# VL: QSVLTQPPSVSAAPGQKVTISCSGSSSNIGNSYISWYQQLPGTAPKLLIYVNNKRPSGIPDRFSGSKSGTSATLGITGLQTGDEADYYCGTWDSSLSAGVFGSGTKVTVLG
# B9: mAb15158 (antibody, V domains shown)
# VH: EVQLVESGGGLVQPGGSLRLSCAASGFSFSSNWMSWVRQAPGKGLEWVGNINQDGSEKYYVDSVEGRFTISRDNAKKSLYLQMNSLRAEDTAVYYCARDLGVLWFGDFVDWGQGALVTVSS
# VL: DIQMTQSPSSLSASVGDRVTITCRASQAISNSLAWYQQKPGKAPKLLLYAASTLESGVPSRFSGSGSGTDYTLTISSLQPEDFATYYCLQYYGSPRTFGQGTKVEIKR
# B10: mAb15159 (antibody, V domains shown)
# VH: EVQLVESGGGLVQPGGSLRLSCAASGITVSSNYMTWVRQAPGKGLEWVSLIYSGGSTFYADSVRGRFTISRDNSKNTLYLQMNSLRAEDTAVYYCARDLVVYGMDVWGQGTTVTVSS
# VL: DIQLTQSPSSLSASVGDRVTITCRASQGISSYLAWYQQKPGKAPKLLIYAASTLQSGVPSRFSGSGSGTDFTLTISSLQPEDFATYYCQHLNSDPHTFGQGTKLEIKR
# B11: mAb15160 (antibody, V domains shown)
# VH: EVQLVESGGGLVQPGGSLRLSCSASGFTFSRYAMYWVRQAPGKGLEYVSAISSDGGSTYDADSVKGRFTISRANSKNTLYLQMSSLRAEDTAVYYCVKGLRELLYYYYGMDVWGQGTTVTVSS
# VL: DIQMTQSPSSLSASVGDRVTITCRAGQSISSFLNWYQQKPGKAPKLLIYAASSLQSGVPSRFSGSGSGTDFTLTISSLQPEDFATYYCQQSYITPFTFGPGTKVDIKR
# B12: mAb15161 (antibody, V domains shown)
# VH: EVQLVESGGGLVQPGGSLRLSCAASGFTFSSYEMNWVRQAPGKGLEWVSYISSSGSILYYADSVKGRFTASRDNAKNSLYLQMNSLRAEDTGVYYCARREYQLLRPFEFWGQGTLVTVSS
# VL: not shown
# B13: mAb15162 (antibody, V domains shown)
# VH: EVQLVETGGGLIQPGGSLRLSCAASEFIVSRNYMSWVRQAPGKGLEWVSLIYSGGSTYYADSVKGRFTISRDNSKNILYLQMNSLRAEDTAVYYCARDRGGISDYWGQGTLVTVSS
# VL: DIQMTQSPSSLSASVGDRVTITCQASQDINKYLNWFQQKPGKAPKLLIYDASNLETGVPSRFSGSGSGTDFTFTISSLQPEDIATYYCQQYDNLPRTFGQGTKLEIKR
# B14: mAb15163 (antibody, V domains shown)
# VH: EVQLVETGGGLIQPGESLRLSCAASGFIVSTNYMNWVRQAPGKGLEWVSVIYRGGSTYYADSVKGRFTISRDNSKNTLFLQMNSLRAEDTAVYYCARGHEDFDYDTPASGAFDIWGQGTMVTVSS
# VL: B3 VL with Y32H, F34Y, L48V, N98K
# B15: mAb15164 (antibody, V domains shown)
# VH: EVQLVESGGGLVQPGGSLRLSCAASGFAVSSNYMTWVRQAPGKGLEWVATIYSGDSTYYADSVKGRFTISRHNSKNTLSLQMNSLRADDTAIYYCARLSGVLSGTYNGAFDIWGQGTMVTVSS
# VL: B2 VL with V29F, E30G, S31N, L34I, K44Q, L48V, S54N, N71H
# B16: mAb15165 (antibody, V domains shown)
# VH: EVQLVESGGGLVQPGGSLRLSCAASGFTVSSNYMSWVRQAPGKGLEWVSAIYSGDSTYYADSVKGRFTISKDNSKNTLYLQMNSLRGEDTAVYYCARLGGALQAYDGAFDYWGQGTLATVSS
# VL: B2 VL with V29F, E30G, S54N, N62I
# B17: mAb15166 (antibody, V domains shown)
# VH: EVQLVESGGGLVQPGGSLRLSCAASGFTVTSNYMSWVRQAPGKGLEWVSAIYSGESTYYADSVKGRFTISRDSSKNTLYLQMNSLRVEDTAVYYCASIHDYSNYVGGFDPWGQGTLVTVSS
# VL: B2 VL with T25P, V29F, E30G, S54T
# B18: mAb15170 (antibody, V domains shown)
# VH: B10 VH with S25T, T35S, R64K, D72H, N83S, V101D, Y102F
# VL: B10 VL with S31N, A84G, H90Q, P95S, H96P, L104V
# B19: mAb15150 (antibody, V domains shown)
# VH: EVQLVETGGGLIQPGGSLRLSCAAPGFIVSSNYMSWVRQAPGKGLEWVSLLYPGGSTYYADSVKGRFTISRDNSKNTLYLQMNSLRADDTAVYYCARVLPIVEDHFDYWGQGTLVTVSS
# VL: DIQLTQSPSFLSASVGDRVTITCRASQGMSSYLAWYQKKPGKAPKLLIYGATILQSGVPSRFSGSGSGTEFTLTISSLQPEDFATYYCQQLNSDPLYMYTFGQGTKLEIKR
# B20: mAb15151 (antibody, V domains shown)
# VH: QVQLVESGGGVVQPGRSLRLSCAASGFVFNSYGMHWVRQAPGKGLEWVAVLWYEGSKNYYADSVKGRFTISRDNSKNTLYLQMNSLRAEDTAVYYCARHGSGSFFGYYLDYWGQGTLVTVSS
# VL: DIQMTQSPSSLSASVGDRVTITCRASHNINDFLNWYQQKPGKAPRLLIYAASSLQSGVPSRFSGSGSGTDFTLTISSLQPEDFATYYCQESYTTPPTFGQGTKLEIKR
# Molecular target: T1, SARS-CoV2 Spike ecto foldon Trimer expressed with a C-terminal myc-myc-hexahistidine (SARS-CoV-2, UniProt P0DTC2 14-1213)
# T1 construct: extracellular domain
# Assay: SPR Biacore, mAb captured by anti-hFc, 37C
row,Binder,Spike trimer.their bound at 50 nM
1,B1,509 RU
2,B2,647 RU
3,B3,650 RU
4,B4,474 RU
5,B5,120 RU
6,B6,237 RU
7,B7,474 RU
8,B8,298 RU
9,B9,224 RU
10,B10,196 RU
11,B11,302 RU
12,B12,282 RU
13,B13,206 RU
14,B14,324 RU
15,B15,379 RU
16,B16,319 RU
17,B17,283 RU
18,B18,221 RU
19,B19,247 RU
20,B20,373 RU

# Molecular target: T1, SARS-CoV2 Spike ecto foldon Trimer …
# Assay: SPR Biacore, mAb captured by anti-hFc, 25C
row,Binder,Spike trimer.their bound at 50 nM
1,B1,357 RU
2,B2,486 RU
3,B3,459 RU
4,B4,366 RU
5,B5,72.8 RU
6,B6,138 RU
7,B7,205 RU
8,B8,42.5 RU
9,B9,55.1 RU
10,B10,147 RU
11,B11,55.8 RU
12,B12,127 RU
13,B13,115 RU
14,B14,97.6 RU
15,B15,107 RU
16,B16,104 RU
17,B17,87 RU
18,B18,48.4 RU
19,B19,87.6 RU
20,B20,145 RU
